Reference: article PMC4904373, “Azole Antifungal Sensitivity of Sterol 14α-Demethylase (CYP51) and CYP5218 from Malassezia globosa” (Scientific Reports, 2016)

Test system: CC(C)=CCC[C@@H](C)[C@H]1CC[C@@]2(C)C3=C(CC[C@]12C)[C@@]1(C)CC[C@H](O)C(C)(C)[C@@H]1CC3
Test: purified protein, by the assay type
Settings: other: 0.13 μM CYP51, 0.5 μM AfCPR1, 5 min at 37 °C, substrate inhibition equation

**Q.** For “M. globosa CYP51 (Malassezia globosa CBS 7966; A7V/E4L/G6A/I5L/L2A/Q3L/W8F)”, which Km is on record?
**A.** 55.14 ± 6.51 µM

**Q.** What about the kcat of the same substance?
**A.** 0.3745 ± 0.0365 s⁻¹
